Here are results for one compound from PubChem BioAssay AID489010 (Southern Research Specialized Biocontainment Screening …, 2010).

The experiment deals with M. tuberculosis H37Rv growth inhibition. Briefly: M. tuberculosis H37Rv growth inhibition, dose response, strain H37Rv (AID 489010). The conditions noted are these: measured here: H37Rv growth IC50.

Usually IC50 stands for the point on the concentration scale where inhibition reaches its midpoint. High values mean a need for much substance, low ones inhibition by little substance. In turn, `CCc1nc2c(n1)c1c(non1O)c1c2no[n+]1[O-]` displayed a half-inhibitory concentration (IC50) of 11.5 µM.
